Compound potency records, mixed from different reports. Data source: NIAID ChemDB in PubChem.

Shared fields: whole-cell or culture tests; organism: HIV-1

Rows are shuffled and stem from different studies. ECn: concentration that inhibits the pathogen or its effect by n%.

{"SMILES": "C[C@H](Cn1cnc2c(N)ncnc21)OCP(=O)(O)O", "read by": "luciferase", "cell line": "HeLa", "strain": "Recombinant", "read-out": "EC50", "changes": "RT-M41L A62V S68N G112S V118I M184V", "value": "0.22 µM"}
{"SMILES": "CCOc1ccc(Cc2cc(C3CCN(C[C@H]4CN([C@@H](C(=O)O)C5CCCCC5)C[C@@H]4c4cccc(F)c4)CC3)n(CC)n2)cc1", "read by": "β-galactosidase", "cell line": "HeLa", "strain": "BaL", "read-out": "EC90", "value": "<0.00014 µM"}
{"SMILES": "Cc1cc(/C=C/c2ccccc2)cc(C)c1Oc1ccnc(Nc2ccc(C#N)cc2)n1", "read by": "MTT", "cell line": "MT-4", "strain": "IIIB", "read-out": "EC50", "changes": "RES056", "value": "6.433 µM"}
{"SMILES": "O=c1[nH]cnc2c1ncn2[C@H]1CC[C@@H](CO)O1", "read by": "p24", "cell line": "MT-2", "strain": "K65R(RT-K65R)", "read-out": "EC50", "changes": "RT-K65R", "value": "7.9 µM"}
{"SMILES": "Cc1cc(C#Cc2ccccc2)cc(C)c1Oc1ccnc(NC2CCN(Cc3ccc(S(N)(=O)=O)cc3)CC2)n1", "read by": "MTT", "cell line": "MT-4", "strain": "IIIB", "read-out": "EC50", "changes": "Y188L", "value": "0.123 µM"}
{"SMILES": "Cc1cn([C@H]2C[C@H](N=[N+]=[N-])[C@@H](COP(=O)(OCCSC(=O)C(C)(C)C)OCCSC(=O)C(C)(C)C)O2)c(=O)[nH]c1=O", "read by": "RT activity", "cell line": "CEM + CEM-SS", "strain": "LAI", "read-out": "EC50", "value": "0.0004 µM"}
{"SMILES": "Nc1ccn([C@H]2CC[C@@H](CO)O2)c(=O)n1", "read by": "p24", "cell line": "MT-4", "strain": "HXB2-D50(RT-I50T)", "read-out": "EC50", "changes": "RT-I50T", "value": "0.48 µM"}
{"SMILES": "COc1ccc(S(=O)(=O)N(CC(C)C)C[C@@H](O)[C@H](Cc2ccccc2)NC(=O)O[C@H]2CO[C@H]3O[C@@H]4OCC[C@@H]4[C@H]32)cc1", "read by": "MTT", "cell line": "MT-2", "strain": "LAI", "read-out": "EC50", "value": "0.0007 µM"}
{"SMILES": "CC(C)(C)NC(=O)[C@@H]1CN(Cc2cccnc2)CCN1C[C@@H](O)C[C@@H](Cc1ccccc1)C(=O)N[C@H]1c2ccccc2C[C@H]1O", "read by": "RT activity", "cell line": "MT-2", "strain": "MN", "read-out": "EC50", "value": "0.007 µM"}
{"SMILES": "Cn1c2ccccc2c2c1cc(C#N)c(=O)n2-c1ccc([N+](=O)[O-])cc1", "read by": "luciferase", "cell line": "HeLa", "strain": "NNRTI-resistant", "read-out": "EC50", "changes": "RT-K103N L100I", "value": "0.0828 µM"}
{"SMILES": "Nc1ncnc2c1ncn2[C@@H]1O[C@H](CO)C[C@@H]1F", "read by": "p24", "cell line": "MT-2", "strain": "L214F(RT-L214F)", "read-out": "EC50", "changes": "RT-L214F", "value": "4.4 µM"}
{"SMILES": "Fc1cccc(F)c1Cn1c(-c2c(F)cccc2F)nc2c(Br)cccc21", "read by": "cytopathic effect / MTT", "cell line": "MT-4", "read-out": "EC50", "changes": "RT-Y188C", "value": "3.4 µM"}
{"SMILES": "Nc1nc(=O)n([C@@H]2CC[C@H](CO)O2)cc1F", "read by": "RT activity", "cell line": "CEM + CEM-SS", "strain": "LAI", "read-out": "EC50", "value": "0.044 µM"}
{"SMILES": "COC(=O)N[C@H](C(=O)N[C@@H](Cc1ccccc1)[C@@H](O)CN(Cc1ccc(-c2ccccn2)cc1)NC(=O)[C@@H](NC(=O)OC)C(C)(C)C)C(C)(C)C", "read by": "p24 / luminescence", "cell line": "MT-4", "strain": "NL4-3", "read-out": "EC50", "changes": "M46I V82F I84V", "value": "0.0364 µM"}
{"SMILES": "Nc1ccn([C@H]2CC[C@@H](CO)O2)c(=O)n1", "cell line": "CEM + CEM-SS", "strain": "LAI", "read-out": "EC50", "value": "0.0325 µM"}
{"SMILES": "Cc1cn([C@H]2C[C@H](N=[N+]=[N-])[C@@H](CO)O2)c(=O)[nH]c1=O", "read by": "plaque count", "cell line": "CEM + CEM-SS", "strain": "R5X4 WT", "read-out": "EC50", "value": "0.04 µM"}
{"SMILES": "CCn1nc(Cc2ccc(C#N)cc2)cc1C1CCN(C[C@H]2CN([C@@H](C(=O)O)C3CCCCC3)C[C@@H]2c2cccc(F)c2)CC1", "read by": "β-galactosidase", "conditions": "50% human serum", "cell line": "HeLa", "strain": "BaL", "read-out": "EC50", "value": "<0.011 µM"}
{"SMILES": "COC(=O)c1cccc2c1nc(-c1c(F)cccc1F)n2Cc1c(F)cccc1F", "read by": "cytopathic effect / MTT", "cell line": "MT-4", "read-out": "EC50", "changes": "RT-Y181C", "value": "8.4 µM"}
{"SMILES": "Cc1ccc(/C=C/c2cc(C)c(Oc3ccnc(Nc4ccc(C#N)cc4)n3)c(C)c2)cc1", "read by": "MTT", "cell line": "MT-4", "strain": "IIIB", "read-out": "EC50", "changes": "Y181C", "value": "0.671 µM"}
{"SMILES": "C=C(C)[C@]12C[C@@H](COC(=O)c3ccccc3)[C@@]34O[C@]5(O[C@@H]1[C@@H]3[C@@H]1O[C@]1(CO)[C@@H](O)[C@@]1(O)[C@H]4[C@H]([C@H](C)[C@@H]1OC(=O)c1ccccc1)[C@H](C)CCCCCC[C@H]5O)O2", "read by": "p24 / ELISA", "cell line": "MT-4", "strain": "NL4-3", "read-out": "EC50", "value": "0.000031 µM"}
{"SMILES": "S=C(NCCc1cccs1)Nc1ccc(Br)cn1", "read by": "p24", "cell line": "PBMC", "strain": "C140 Clinical isolate NRTI-resistant", "read-out": "EC50", "changes": "RT-M41L M184V T215Y", "value": "0.019 µM"}
{"SMILES": "CC[C@H](C)[C@H](C(=O)O)N1C[C@H](CN2CCC(c3cc(Cc4ccc(OCC(F)(F)F)cc4)nn3CC)CC2)[C@@H](c2cccc(F)c2)C1", "read by": "β-galactosidase", "conditions": "50% human serum", "cell line": "HeLa", "strain": "BaL", "read-out": "EC50", "value": "<0.033 µM"}
{"SMILES": "CC(C)(C)C(=O)SCCOP(=O)(OCCSC(=O)C(C)(C)C)OC[C@@H]1CC[C@H](n2cnc3c(N)ncnc32)O1", "read by": "RT activity", "cell line": "CEM + CEM TK-", "strain": "LAI", "read-out": "EC50", "value": "0.0011 µM"}
{"SMILES": "Nc1cccc2c1nc(-c1c(F)cccc1F)n2Cc1c(F)cccc1F", "read by": "cytopathic effect / MTT", "cell line": "MT-4", "strain": "4XAZT/L100I (RT D67N K70R L100I T215Y K219Q)", "read-out": "EC50", "changes": "RT-D67N K70R L100I T215Y K219Q", "value": "0.3 µM"}
{"SMILES": "COCCNC(=O)[C@@H](NC(=O)[C@H](Cc1ccc(OC)c(OC)c1OC)C[C@H](O)[C@H](Cc1ccccc1)NC(=O)OC(C)(C)C)C(C)C", "read by": "RT activity", "cell line": "MT-2", "strain": "MN", "read-out": "EC50", "value": "0.0017 µM"}
{"SMILES": "CCn1nc(Cc2ccc(C#N)cc2)cc1C1CCN(C[C@H]2CN([C@@H](C(=O)O)C(C)C)C[C@@H]2c2cccc(F)c2)CC1", "read by": "β-galactosidase", "conditions": "50% human serum", "cell line": "HeLa", "strain": "BaL", "read-out": "EC50", "value": "<0.1 µM"}
{"SMILES": "Cc1cn([C@H]2C[C@H](N=[N+]=[N-])[C@@H](CO)O2)c(=O)[nH]c1=O", "read by": "plaque count", "cell line": "HELA/CD4 + HELA CD4+", "strain": "HXB2", "read-out": "EC50", "changes": "RT-M184I", "value": "0.001 µM"}
{"SMILES": "Cc1ccccc1CNC(=O)[C@H]1N(C[C@@H](O)C[C@@H](Cc2ccccc2)C(=O)N[C@H]2c3ccccc3OC[C@H]2O)CSC1(C)C", "read by": "p24", "cell line": "MT-4", "read-out": "EC95", "changes": "PR-K60C", "value": ">1 µM"}
{"SMILES": "CCCCCCCCCCCCSCC(COP(=O)([O-])OCC[N+](C)(C)C)OCCCCCCCCO", "read by": "plaque count", "cell line": "CEM + CEM-SS", "strain": "LAI-XXBRU WT", "read-out": "EC50", "value": "0.19 µM"}
{"SMILES": "O=c1[nH]cnc2c1ncn2[C@H]1CC[C@@H](CO)O1", "read by": "cytopathic effect / MTT", "cell line": "MT-4", "strain": "RF", "read-out": "EC50", "changes": "RT-M184I", "value": "12.3 µM"}
{"SMILES": "Nc1ncnc2c1ncn2CCOCP(=O)(O)O", "read by": "p24", "cell line": "MT-2", "strain": "HXB2D", "read-out": "EC50", "value": "1 µM"}
{"SMILES": "CC[C@H](C)[C@H](C(=O)O)N1C[C@H](CN2CCC(c3cc(Cc4ccc(OC(C)C)cc4)nn3CC)CC2)[C@@H](c2cccc(F)c2)C1", "read by": "β-galactosidase", "cell line": "HeLa", "strain": "BaL", "read-out": "EC90", "value": "<0.00014 µM"}
{"SMILES": "Cc1c(O)cccc1C(=O)N[C@@H](CSc1ccccc1)[C@H](O)CN1C[C@H]2CCCC[C@H]2C[C@H]1C(=O)NC(C)(C)C", "read by": "RT activity", "cell line": "MT-2", "strain": "BRU", "read-out": "EC50", "value": "0.0234 µM"}
{"SMILES": "Cc1cc(=O)c2ccc(N=C=S)cc2o1", "read by": "p24 / ELISA", "cell line": "CEM-GFP", "strain": "89.6", "read-out": "EC50", "value": "0.188 µM"}
{"SMILES": "COc1ccc(CN[C@@H](C(=O)N[C@H]2c3ccccc3C[C@H]2O)[C@H](O)[C@H](Cc2ccccc2)NC(=O)[C@@H](NC(=O)OCc2ccccc2)C(C)(C)C)cc1", "read by": "p24", "cell line": "Primary T4 cells + T4", "strain": "A018A", "read-out": "EC50", "value": "0.028 µM"}
{"SMILES": "CC(C)(C)NC(=O)[C@@H]1C[C@@H]2CCCC[C@@H]2CN1C[C@@H](O)[C@H](Cc1ccccc1)NC(=O)[C@H](CC(N)=O)NC(=O)c1ccc2ccccc2n1", "read by": "RT activity", "cell line": "MT-2", "strain": "BRU", "read-out": "EC50", "value": "0.0121 µM"}
{"SMILES": "CCn1nc(Cc2cc(F)cc(F)c2)cc1C1CCN(C[C@H]2CN([C@@H](C(=O)O)C(C)C)C[C@@H]2c2cccc(F)c2)CC1", "read by": "β-galactosidase", "conditions": "50% human serum", "cell line": "HeLa", "strain": "BaL", "read-out": "EC50", "value": "<0.3 µM"}
{"SMILES": "CC(C)(C)C(=O)SCCCCOP(=O)(OCCCCSC(=O)C(C)(C)C)OC[C@@H]1CC[C@H](n2cnc3c(N)ncnc32)O1", "read by": "RT activity", "cell line": "CEM + CEM-SS", "strain": "LAI", "read-out": "EC50", "value": ">10 µM"}
{"SMILES": "CC(C)CN(C[C@@H](O)[C@H](Cc1ccccc1)NC(=O)O[C@H]1CCOC1)S(=O)(=O)c1ccc(N)cc1", "read by": "RT activity", "cell line": "MT-2", "strain": "RF", "read-out": "EC50", "value": "0.0534 µM"}
{"SMILES": "CC(=O)Nc1cccc(C#Cc2cc(C)c(Oc3ccnc(Nc4ccc(C#N)cc4)n3)c(C)c2)c1", "read by": "MTT", "cell line": "MT-4", "strain": "IIIB", "read-out": "EC50", "value": "0.016 µM"}
{"SMILES": "Nc1ccn([C@H]2CC[C@@H](CO)O2)c(=O)n1", "read by": "p24", "cell line": "MT-2", "strain": "HXB2D", "read-out": "EC50", "value": "0.3 µM"}
{"SMILES": "CCn1nc(Cc2ccc(Cl)cc2)cc1C1CCN(C[C@H]2CN([C@@H](C(=O)O)C3CCCCC3)C[C@@H]2c2cccc(F)c2)CC1", "read by": "β-galactosidase", "conditions": "50% human serum", "cell line": "HeLa", "strain": "BaL", "read-out": "EC50", "value": "<0.1 µM"}
{"SMILES": "CCC[C@@]1(CCc2ccccc2)CC(O)=C([C@H](CC)c2cccc(NS(=O)(=O)c3ccc(C(F)(F)F)cn3)c2)C(=O)O1", "read by": "p24 / luminescence", "cell line": "MT-4", "strain": "NL4-3", "read-out": "EC50", "changes": "L10F M46I I54V V82A", "value": ">1 µM"}
{"SMILES": "CCCCCCCCCCCCSCC(COP(=O)([O-])OCC[N+](C)(C)C)OCCCCCCCCC(=O)OCC(=O)OC[C@H]1O[C@@H](n2cc(C)c(=O)[nH]c2=O)C[C@@H]1N=[N+]=[N-]", "read by": "plaque count", "cell line": "CEM + CEM-SS", "strain": "Clinical isolate G910-6 post-AZT", "read-out": "EC50", "changes": "RT mutant at codon 215", "value": "0.03 µM"}
{"SMILES": "CC(=O)Nc1cccc2c1nc(-c1c(F)cccc1F)n2Cc1c(F)cccc1F", "read by": "cytopathic effect / MTT", "cell line": "MT-4", "read-out": "EC50", "changes": "RT-K101E", "value": ">20 µM"}
{"SMILES": "CC[C@H](C)[C@H](C(=O)O)N1C[C@H](CN2CCC(c3cc(Cc4ccc(C(F)(F)F)cc4)nn3CC)CC2)[C@@H](c2cccc(F)c2)C1", "read by": "β-galactosidase", "conditions": "50% human serum", "cell line": "HeLa", "strain": "BaL", "read-out": "EC90", "value": "0.033 µM"}
{"SMILES": "Cc1ccnc2c1NC(=O)c1cccnc1N2C1CC1", "read by": "p24 / ELISA", "cell line": "C8166", "strain": "NL4-3", "read-out": "EC50", "changes": "V108I", "value": "0.44 µM"}
{"SMILES": "Cc1ccnc2c1NC(=O)c1cccnc1N2C1CC1", "read by": "plaque count", "cell line": "HT4 + HT4 LacZ-1", "strain": "RTMC", "read-out": "EC50", "changes": "RT-D67N K70R T215Y K219Q", "value": "0.06 µM"}
{"SMILES": "CCn1nc(Cc2cccc3ccccc23)cc1C1CCN(C[C@H]2CN([C@@H](C(=O)O)C(C)(C)C)C[C@@H]2c2cccc(F)c2)CC1", "read by": "β-galactosidase", "conditions": "50% human serum", "cell line": "HeLa", "strain": "BaL", "read-out": "EC90", "value": "0.011 µM"}